Laboratory results: PubChem BioAssay AID504761 (Drosophila RNAi Screening Center, 2011)
In all, the deposit lists about 22,000 reagents; below is an unselected part of those with a known target gene and a result. In the full data, 116 (0.52%) are marked active. 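Calls depend on retest data that are not deposited; infection was ranked per plate without normalising between plates; the unit of the infection score is not given.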 The raw values are shown without normalisation. A number with no mark means an inactive call. A plus sign joins genes that one reagent is predicted to hit. Not stated in the record: the amount of reagent, the time to read-out.

- Assay: 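Genome-wide fly cell screen for genes dengue virus requires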 (primary screen)
- System: D.Mel-2 cells from Drosophila
- Reagent: long dsRNA against Drosophila genes
- Conditions: infection with dengue virus type 2; dose and infection time not stated
- Detection: 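Per well on two replicate plates, imaging gave the percent of cells positive for viral envelope protein, ranked by infection, and a nuclear count of cells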
- Scale: infection score: higher = more virus-infected cells; cell count: higher = more cells in the well
- Call rule: 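Low infection ranks in the two replicates (chance level up to 0.065) followed by a retest with a 1.5-fold or larger significant decrease, p below 0.05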
- Meaning of the calls: active = confirmed: knock-down lowers infection; inactive = not picked or not confirmed

| gene knocked down | dsRNA | infection score, replicate 1 | infection score, replicate 2 | cell count, replicate 1 | cell count, replicate 2 |
| --- | --- | --- | --- | --- | --- |
| CG6830 | DRSC16124 | 24.4 | 28 | 6271 | 4670 |
| CG6830 | DRSC27278 | 21 | 21 | 6432 | 6361 |
| Cpr73D | DRSC11084 | 0.19 | 1.1 | 7384 | 6849 |
| Cpr73D | DRSC26591 | 1.81 | 2.13 | 6344 | 6371 |
| Tehao | DRSC03449 | 2.23 | 2.57 | 6598 | 6542 |
| B4 | DRSC01868 | 26.8 | 16.6 | 4309 | 6155 |
| B4 | DRSC03175 | 3.49 | 4.6 | 6509 | 6627 |
| CG17928 | DRSC02644 | 11.5 | 2.66 | 4859 | 6460 |
| CG13590 | DRSC04226 | 3.72 | 3.4 | 6077 | 6739 |
| CG13590 | DRSC29790 | 35.9 | 9.81 | 5466 | 6117 |
| CG9135 | DRSC03144 | 3.89 | 4.96 | 6173 | 6048 |
| RecQ4 | DRSC11265 | 1.11 | 1.19 | 5129 | 5134 |
| RecQ4 | DRSC27616 | 4.72 | 7.52 | 5674 | 5998 |
| CG1647 | DRSC15134 | 9.23 | 2.13 | 6435 | 6541 |
| CG5070 | DRSC19932 | 1.93 | 0.63 | 6574 | 6717 |
| CG5070 | DRSC28082 | 14.1 | 9.93 | 6559 | 6064 |
| FoxK | DRSC24971 | 9.02 | 2.49 | 6356 | 6465 |
| CG5254 | DRSC18611 | 5.04 | 10.4 | 5640 | 3250 |
| Glys | DRSC16130 | 18.1 | 7.81 | 5390 | 6373 |

A stretch taken from the entries so far:
| gene knocked down | dsRNA | infection score, replicate 1 | infection score, replicate 2 | cell count, replicate 1 | cell count, replicate 2 |
| --- | --- | --- | --- | --- | --- |
| Cpr73D | DRSC26591 | 1.81 | 2.13 | 6344 | 6371 |
| Tehao | DRSC03449 | 2.23 | 2.57 | 6598 | 6542 |

Further reagents follow.
| gene knocked down | dsRNA | infection score, replicate 1 | infection score, replicate 2 | cell count, replicate 1 | cell count, replicate 2 |
| --- | --- | --- | --- | --- | --- |
| CG6984 | DRSC07013 | 5.49 | 2.11 | 6716 | 6958 |
| Dhfr | DRSC16646 | 5.72 | 11.3 | 6137 | 1620 |
| Dhfr | DRSC29019 | 6.32 | 21.7 | 5395 | 4507 |
| CG13337 | DRSC06371 | 4.8 | 20.3 | 6578 | 4625 |
| CG13337 | DRSC28309 | 2.64 | 7.47 | 720 | 1753 |
| CG42507 + Trl | DRSC09325 | 2.95 | 4.32 | 5427 | 6464 |
| CG42507 + Trl | DRSC25045 | 3.61 | 2.77 | 6177 | 6173 |
| Cdlc2 | DRSC00743 | 0.84 | 5.18 | 6563 | 6385 |
| Cdlc2 | DRSC24865 | 5.09 | 5.69 | 6666 | 5990 |
| CG33172 | DRSC21793 | 3.98 | 8.8 | 6766 | 5997 |
| CG15097 | DRSC06526 | 8.65 | 4.74 | 6394 | 6694 |
| CG15097 | DRSC27170 | 13.3 | 18.9 | 6180 | 6886 |
| Ir48b | DRSC06320 | 23.6 | 10.1 | 6129 | 6826 |
| Bicra | DRSC14417 | 4.88 | 1.28 | 6859 | 627 |
| Bicra | DRSC25127 | 0.83 | 1.65 | 6717 | 6499 |
| MsR2 + CG13802 (retired record) | DRSC08336 | 1.81 | 2.37 | 6397 | 6466 |
| MsR2 + CG13802 (retired record) | DRSC08337 | 3.13 | 0.96 | 6235 | 6456 |
| MsR2 + CG13802 (retired record) | DRSC22440 | 4.13 | 6.75 | 5878 | 6567 |
| MsR2 + CG13802 (retired record) | DRSC26863 | 1.96 | 3.99 | 6634 | 6334 |
| CG33981 + fab1 | DRSC07412 | 10.1 | 11 | 5584 | 5814 |
| CG33981 + fab1 | DRSC28045 | 4.08 | 12.1 | 6324 | 6236 |
